Measurements reported in PubChem BioAssay AID624099 (ICCB-Longwood, 2012).

Aim: 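Human genes that papillomavirus E2 requires to repress the HPV18 LCR promoter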 (primary screen)
Cells: human C33A cervical carcinoma cells (HPV-negative) stably expressing BPV1 E2 and an HPV18 LCR luciferase reporter
Reagent: siRNA pool against human genes, 40 nM
Time to read-out: 72 h
Detection: 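Per-well luciferase luminescence, z-scored on each plate against the plate mean and SD with control wells left out, then averaged across three replicate plates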
Scale: mean z-score and z-score: higher = stronger reporter signal, weaker E2 silencing
Active means: 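Hit if mean z-score reaches 2 and two or more of three replicate z-scores also reach 2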
This is a random part of about 21,000 reagents. 497 of all reagents (2.4%) were called active. 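Higher z means weaker E2 silencing; only reporter increases were scored, and knock-downs that hurt cell survival may mask genuine repressor factors.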 Unmarked entries are inactive.

BPIFA3 showed mean z-score -0.16; z-score, replicate A = -0.05; z-score, replicate B = -0.48; z-score, replicate C = 0.03.
FASTKD5 scored mean z-score -0.24; z-score, replicate A = -0.45; z-score, replicate B = -0.57; z-score, replicate C = 0.3.
KCNH7 gave mean z-score -2.23; z-score, replicate A = -2.08; z-score, replicate B = -2.39; z-score, replicate C = -2.21.
After knock-down of LOC392546 (retired record) the results were mean z-score 1.01; z-score, replicate A = 0.6; z-score, replicate B = 1.18; z-score, replicate C = 1.26.
With knock-down of NOMO3 the results were mean z-score 0.25; z-score, replicate A = 0.28; z-score, replicate B = 0.38; z-score, replicate C = 0.08.
Depletion of RAB23 came out at: mean z-score 0.15; z-score, replicate A = 0.16; z-score, replicate B = 0.35; z-score, replicate C = -0.06.
For NECAB3, the entry reads mean z-score -0.67; z-score, replicate A = -1.02; z-score, replicate B = -0.68; z-score, replicate C = -0.3.
Against SMAD6 the deposit lists mean z-score 1.81; z-score, replicate A = 1.56; z-score, replicate B = 2.06; z-score, replicate C = 1.81.
Against LOC391047 (retired record), the entry reads mean z-score 1.02; z-score, replicate A = 1.09; z-score, replicate B = 0.99; z-score, replicate C = 1.
After knock-down of FHIP2B the results were mean z-score 1.59; z-score, replicate A = 1.44; z-score, replicate B = 1.64; z-score, replicate C = 1.69.
With knock-down of IL20RA, the record shows mean z-score 0.49; z-score, replicate A = 0.23; z-score, replicate B = 0.47; z-score, replicate C = 0.77.
Knock-down of NMS resulted in: mean z-score -0.07; z-score, replicate A = 0.18; z-score, replicate B = -0.08; z-score, replicate C = -0.3.
HSPB3 gave mean z-score 0.7; z-score, replicate A = 0.51; z-score, replicate B = 0.81; z-score, replicate C = 0.77.
Silencing of GDF1 resulted in: mean z-score -0.13; z-score, replicate A = -0.18; z-score, replicate B = -0.23; z-score, replicate C = 0.03.
TMEM214 scored mean z-score 0.52; z-score, replicate A = 0.33; z-score, replicate B = 0.61; z-score, replicate C = 0.63.
Knock-down of DHODH resulted in: mean z-score -0.06; z-score, replicate A = 0.07; z-score, replicate B = 0.07; z-score, replicate C = -0.31.
Depletion of PART1 came out at: mean z-score 0.73; z-score, replicate A = 0.6; z-score, replicate B = 0.77; z-score, replicate C = 0.81.
For IP6K1 the deposit lists mean z-score -0.67; z-score, replicate A = -0.83; z-score, replicate B = -0.67; z-score, replicate C = -0.52.
PHB1 gave mean z-score 0.32; z-score, replicate A = 0.45; z-score, replicate B = 0.05; z-score, replicate C = 0.45.
After knock-down of CRYGS the results were mean z-score 0.46; z-score, replicate A = 0.49; z-score, replicate B = 0.35; z-score, replicate C = 0.53.
Against TDP2, the values are mean z-score -1.07; z-score, replicate A = -0.79; z-score, replicate B = -1.12; z-score, replicate C = -1.3.

Already shown: 3 of the entries above.
PART1 | mean z-score: 0.73; z-score, replicate A: 0.6; z-score, replicate B: 0.77; z-score, replicate C: 0.81
IP6K1 | mean z-score: -0.67; z-score, replicate A: -0.83; z-score, replicate B: -0.67; z-score, replicate C: -0.52
PHB1 | mean z-score: 0.32; z-score, replicate A: 0.45; z-score, replicate B: 0.05; z-score, replicate C: 0.45
